Results taken from article PMC6609384, “Pharmacokinetics of cucurbitacin B from Trichosanthes cucumerina L. in rats” (BMC Complementary and Alternative Medicine, 2019).

Assay: Animal tolerability: general appearance and blood chemistry (AST, ALT, creatinine)
Format: in vivo, male Wistar rats
Details: for General appearance / ALT / AST / Creatinine: post-dosing (24 h); for ALT / AST / Creatinine: plasma
Description: Liver and kidney function were assessed prior to the pharmacokinetic experiment. Biochemical markers for aspartate aminotransferase (AST), alanine aminotransferase (ALT), and creatinine were used to determine these functions. Plasma was collected before and 24 h after cucurbitacin B administration. Measurement of these markers was conducted by Professional Laboratory Management Corporation (Bangkok, Thailand). AST and ALT were quantified by kinetic method according to IFCC recommendations, whereas creatinine level in plasma was measured by using Cobas 6000 automated analyzer in enzymatic method (chemiluminescence).
Biochemical markers including AST, ALT, and creatinine were presented as mean ± standard deviation (SD). Comparison of these markers between pre- and post-treatment groups was conducted by paired sample t-test in which statistical difference was decided at p-value < 0.05. Cucurbitacin B plasma levels obtained from LC-MS/MS analysis were further analyzed by constructing the curve between the calculated concentrations (μg/L) and blood sampling time points (h). Cucurbitacin B plasma concentrations in the plasma concentration-time curve were reported as mean ± SD. Pharmacokinetic parameters were computed by PK solutions 2.0 software (Montrose, United States) with non-compartmental analysis. The pharmacokinetic parameters were listed as follows: maximum plasma concentration (Cmax), time to maximum plasma concentration (Tmax), area under the curve from time zero to last sampling time point (AUC0-t), area under the curve from time zero to infinity (AUC0-inf), absolute oral bioavailability (F), elimination half-life (t1/2), volume of distribution (Vd), clearance (CL), and mean residence time (MRT). Absolute oral bioavailability was calculated according to the following equation: %F=AUC0−infafter oral administration/AUC0−infafterIVadministration×IVdose/oral dose×100

Cucurbitacin B
General appearance (0.1 mg/kg IV): Normal | ALT (0.1 mg/kg IV): 11.00 ± 3.94 U/L | AST (0.1 mg/kg IV): 49.20 ± 3.27 U/L | Creatinine (0.1 mg/kg IV): 0.23 ± 0.02 mg/dL | General appearance (2 mg/kg PO): Normal | ALT (2 mg/kg PO): 6.33 ± 1.53 U/L | AST (2 mg/kg PO): 32.33 ± 11.68 U/L | Creatinine (2 mg/kg PO): 0.19 ± 0.03 mg/dL | General appearance (4 mg/kg PO): Normal | ALT (4 mg/kg PO): 12.25 ± 5.62 U/L | AST (4 mg/kg PO): 50.25 ± 0.96 U/L | Creatinine (4 mg/kg PO): 0.22 ± 0.03 mg/dL | tolerability (all animals, 24 h after administration): good tolerability | observed adverse sign (high dose administered group): soft stool in some animals
